Experimental data from PMC6415679 (ChemMedChem, 2018).
Where two headings read alike, the source gives them in different places.

Key:
Format in all cases: biochemical
ACT (Sigma) = ACT (Sigma) (Bordetella pertussis, UniProt P0DKX7); conditions: read-out: IC50 ACT Sigma
ACT (Enzo) = ACT (Enzo) (Bordetella pertussis, UniProt P0DKX7)
edema factor (EF) = edema factor (EF) (Bacillus anthracis, UniProt P40136); conditions: read-out: IC50 EF
[1] = read-out: IC50 values, range over all enzymes tested

Row | Substance | IC50 (ACT (Sigma)) [nM] | IC50 (ACT (Enzo); read-out: IC50 ACT Enzo) [nM] | IC50 (ACT (Enzo); [1]) [nM] | IC50 (edema factor (EF)) [nM]
1 | (8-Aza-7-deazaadenine-9-yl)ethoxy)methyl)phosphonic acid diphosphate [Compound 40b] | 12.7 ± 0.3 | 20.8 ± 0.1 | 0.5 to 21 | 5.28 ± 1.33
2 | (7-Deazaadenine-9-yl)ethoxy)methyl)phosphonic acid diphosphate [Compound 40a] | 0.51 ± 0.12 | 4.08 ± 0.75 | 0.5 to 21 | 2.54 ± 0.65
